PubChem BioAssay AID504761 – Drosophila RNAi Screening Center – 2011
The screen tested about 22,000 reagents; this is a random part of those with a known target gene and a result. In the full data, 116 (0.52%) are marked active. 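Calls depend on retest data that are not deposited; infection was ranked per plate without normalising between plates; the unit of the infection score is not given.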 Raw values vary from plate to plate and are shown uncorrected. Not all columns of the deposit are shown. Not given: the amount of reagent, the time to read-out.

- Aim: 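Genome-wide fly cell screen for genes dengue virus requires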 (primary screen)
- Cells: D.Mel-2 cells from Drosophila
- Reagent: long dsRNA against Drosophila genes
- Challenge: infection with dengue virus type 2; dose and infection time not stated
- Detection: 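Cells stained for dengue envelope protein and imaged; percent of infected cells per well on duplicate plates, ranked by infection, with stained nuclei counted for cell number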
- Scale: infection score: higher = more virus-infected cells; cell count: higher = more cells in the well
- Hit rule: 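Low infection ranks in the two replicates (chance level up to 0.065) followed by a retest with a 1.5-fold or larger significant decrease, p below 0.05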
- Calls: active = confirmed: knock-down lowers infection; inactive = not picked or not confirmed

CG31496 [DRSC12547]
- infection score, replicate 1: 4.18
- cell count, replicate 1: 6657
- outcome: inactive

CG31496 [DRSC27899]
- infection score, replicate 1: 11
- cell count, replicate 1: 6532
- outcome: inactive

Wsck [DRSC13682]
- infection score, replicate 1: 6.38
- cell count, replicate 1: 5969
- outcome: inactive

Wsck [DRSC28781]
- infection score, replicate 1: 13.4
- cell count, replicate 1: 5011
- outcome: inactive

CG8818 [DRSC07275]
- infection score, replicate 1: 5.31
- cell count, replicate 1: 6137
- outcome: inactive

CG8818 [DRSC28138]
- infection score, replicate 1: 15.8
- cell count, replicate 1: 6287
- outcome: inactive

eg (eagle) [DRSC11885]
- infection score, replicate 1: 2.6
- cell count, replicate 1: 6031
- outcome: inactive

eg (eagle) [DRSC26147]
- infection score, replicate 1: 5.76
- cell count, replicate 1: 6193
- outcome: inactive

CYLD (Cylindromatosis) [DRSC02870]
- infection score, replicate 1: 3.14
- cell count, replicate 1: 1943
- outcome: inactive

CG14572 [DRSC11733]
- infection score, replicate 1: 2.24
- cell count, replicate 1: 6746
- outcome: inactive

PIG-O (Phosphatidylinositol glycan anchor biosynthesis class O) [DRSC06123]
- infection score, replicate 1: 10.4
- cell count, replicate 1: 6358
- outcome: inactive

Hinfp (Histone H4 transcription factor) [DRSC18484]
- infection score, replicate 1: 5.36
- cell count, replicate 1: 4904
- outcome: inactive

Hinfp (Histone H4 transcription factor) [DRSC24069]
- infection score, replicate 1: 2.29
- cell count, replicate 1: 6159
- outcome: inactive

Cyp313b1 (Cytochrome P450 313b1) [DRSC16629]
- infection score, replicate 1: 13.1
- cell count, replicate 1: 6476
- outcome: inactive

Entries above whose target name starts with E or e (2):
eg (eagle) [DRSC11885]
- infection score, replicate 1: 2.6
- cell count, replicate 1: 6031
- outcome: inactive

eg (eagle) [DRSC26147]
- infection score, replicate 1: 5.76
- cell count, replicate 1: 6193
- outcome: inactive
